Anti-infective test results gathered from many reports (values: NIAID ChemDB through PubChem).

Common to all: growth or infection tests; organism: Aspergillus flavus

Rows are shuffled and stem from different studies. An empty or dashed field is not shown. A number after MIC or MFC names an inhibition level or a share of isolates.

Cc1ccc(-c2n[nH]c(COc3nc(C(F)(F)F)nc4ccccc34)n2)cc1 ; endpoint: MIC100 ; strain: MTCC 277 ; value: 50 µg/mL
Nc1ncccc1-c1cc(Cc2ccc(COc3ccccn3)cc2)no1 ; endpoint: MIC50 ; strain: IFM50915 ; read by: broth dilution ; value: 0.016 µg/mL
Cn1c(=O)c(-c2[nH][nH]c(=O)c2N=Nc2ccccc2Cl)c(O)c2ccccc21 ; endpoint: MIC ; strain: ATCC 28542 ; value: 50 µg/mL
Fc1ccc(-c2n[nH]c(COc3ncnc4ccccc34)n2)cc1 ; endpoint: MIC100 ; strain: MTCC 277 ; value: 25 µg/mL
O=C(c1ccccc1)N1CCC(n2cc(-c3nc(-c4ccccc4)n[nH]3)nn2)CC1 ; endpoint: MIC ; read by: agar ; value: 160 µg/mL
OC(Cn1cncn1)(Cn1cncn1)c1ccc(F)cc1F ; endpoint: MIC ; strain: MTCC 1883 ; value: 10 µg/mL
CCC(C)CC(C)CCCCCCCCC(=O)N[C@H]1C[C@@H](O)[C@H](NCCN)NC(=O)[C@@H]2[C@@H](O)CCN2C(=O)[C@H]([C@H](O)CCN)NC(=O)[C@H]([C@H](O)[C@@H](O)c2ccc(O)cc2)NC(=O)[C@@H]2C[C@@H](O)CN2C(=O)[C@H]([C@@H](C)O)NC1=O ; endpoint: MIC ; strain: 25 ; read by: broth dilution ; value: 128 µg/mL
Cc1nc(OCc2nc(-c3ccc(F)cc3)n[nH]2)c2ccccc2n1 ; endpoint: MIC100 ; strain: MTCC 277 ; value: 50 µg/mL
CS(=O)(=O)N1CCC(n2cc(-c3nc(-c4ccc(Cl)cc4)n[nH]3)nn2)CC1 ; endpoint: MIC ; read by: agar ; value: 20 µg/mL
Nc1ccc(O)c2ncccc12 ; endpoint: MIC ; strain: KCCM 11899 ; value: 0.8 µg/mL
CCC(C)CC(C)CCCCCCCCC(=O)N[C@H]1C[C@@H](O)[C@H](NCCN)NC(=O)[C@@H]2[C@@H](O)CCN2C(=O)[C@H]([C@H](O)CCN)NC(=O)[C@H]([C@H](O)[C@@H](O)c2ccc(O)cc2)NC(=O)[C@@H]2C[C@@H](O)CN2C(=O)[C@H]([C@@H](C)O)NC1=O ; endpoint: MIC ; strain: ND255 ; read by: broth dilution ; value: 0.06 µg/mL
CC(=O)N1CCC(n2cc(-c3nc(-c4ccc(C)cc4)n[nH]3)nn2)CC1 ; endpoint: MIC ; read by: agar ; value: 50 µg/mL
CC(C)S(=O)(=O)N1CCN(c2cnn(-c3cc(F)cc(F)c3)c(=O)c2OC2CCC(F)C2)CC1 ; endpoint: MIC ; strain: ND255 ; read by: broth dilution ; value: 0.03 µg/mL
CC(=O)N1CCC(n2cc(-c3nc(-c4ccc(Cl)cc4)n[nH]3)nn2)CC1 ; endpoint: MIC ; read by: agar ; value: 50 µg/mL
Cn1c(=O)c(-c2[nH][nH]c(=O)c2N=Nc2ccc(N)cc2)c(O)c2ccccc21 ; endpoint: MIC ; strain: ATCC 28542 ; value: 50 µg/mL
Cc1nc(OCc2nc(-c3ccco3)n[nH]2)c2ccccc2n1 ; endpoint: MIC100 ; strain: MTCC 277 ; value: 25 µg/mL
CCCCCCCCOC(=O)[C@]1(O)C[C@@H](O)[C@@H](O)[C@H](OC(=O)/C=C/c2ccc(O)c(O)c2)C1 ; endpoint: MIC50 ; strain: AMP 9 ; read by: absorbance ; value: 500 µg/mL
CCC1/C=C/C=C/C=C/C=C/C(OC2OC(C)C(O)C(N)C2O)CC2OC(O)(CC(O)CC(O)C(O)/C=C/C(=O)OC1C)CC(O)C2C(=O)O ; endpoint: MIC ; strain: CGMCC 3.289 ; read by: broth dilution ; value: 6.25 µg/mL
C[C@@H](c1ncncc1F)[C@](O)(Cn1cncn1)c1ccc(F)cc1F ; endpoint: MIC ; strain: IAM 13835 ; value: 0.39 µg/mL
Cn1c(=O)c(-c2[nH][nH]c(=O)c2N=Nc2cccc(Cl)c2)c(O)c2ccccc21 ; endpoint: MIC ; strain: ATCC 28542 ; value: >100 µg/mL
COC(=O)/C=C/c1ccccc1 ; endpoint: MIC ; read by: broth dilution / resazurin ; value: 250 µg/mL
Brc1ccc(-c2n[nH]c(COc3ncnc4ccccc34)n2)cc1 ; endpoint: MIC100 ; strain: MTCC 277 ; value: 25 µg/mL
CC(C)C[C@H](N)C(=O)O ; endpoint: MFC100 ; strain: ATCC 204304 ; read by: broth dilution ; value: >18000 µg/mL
CC1/C=C/C=C/C=C/C=C/C(O[C@@H]2O[C@H](C)[C@@H](O)[C@H](N)[C@@H]2O)CC2OC(O)(CC(O)CC(O)C(O)/C=C/C(=O)OC1C)CC(O)C2C(=O)O ; endpoint: MIC100 ; strain: CGMCC 3.289 ; read by: broth dilution ; value: 25 µg/mL
Cn1c(=O)c(-c2[nH][nH]c(=O)c2C=Nc2ccc(Cl)cc2)c(O)c2ccccc21 ; endpoint: MIC ; strain: ATCC 28542 ; value: 25 µg/mL
CC(C)CC(O)C(=O)O ; endpoint: MFC100 ; strain: MRCM 24832 ; read by: broth dilution / visual reading ; value: >72000 µg/mL
Fc1ccc(-c2n[nH]c(COc3nc(C(F)(F)F)nc4ccccc34)n2)cc1 ; endpoint: MIC100 ; strain: MTCC 277 ; value: 25 µg/mL
Cn1c(=O)c(-c2[nH][nH]c(=O)c2C=Nc2ccccc2)c(O)c2ccccc21 ; endpoint: MIC ; strain: ATCC 28542 ; value: >100 µg/mL
Cc1nc(OCc2nc(-c3ccc(O)cc3)n[nH]2)c2ccccc2n1 ; endpoint: MIC100 ; strain: MTCC 277 ; value: 25 µg/mL
C[C@@H](c1ncncc1F)[C@](O)(Cn1cncn1)c1ccc(F)cc1F ; endpoint: MIC50 ; read by: broth dilution ; value: 0.5 µg/mL

The last 4 rows once more:

compound,endpoint,strain,read by,value
Fc1ccc(-c2n[nH]c(COc3nc(C(F)(F)F)nc4ccccc34)n2)cc1,MIC100,MTCC 277,-,25 µg/mL
Cn1c(=O)c(-c2[nH][nH]c(=O)c2C=Nc2ccccc2)c(O)c2ccccc21,MIC,ATCC 28542,-,>100 µg/mL
Cc1nc(OCc2nc(-c3ccc(O)cc3)n[nH]2)c2ccccc2n1,MIC100,MTCC 277,-,25 µg/mL
C[C@@H](c1ncncc1F)[C@](O)(Cn1cncn1)c1ccc(F)cc1F,MIC50,-,broth dilution,0.5 µg/mL